Laboratory results published in patent US20100143416.

Biological target: T1, human neutrophil protein 1 (HNP-1), synthetic
T1 chain: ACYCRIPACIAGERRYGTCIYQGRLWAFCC

B1: Bacillus anthracis lethal factor (LF), recombinant (protein)
chain: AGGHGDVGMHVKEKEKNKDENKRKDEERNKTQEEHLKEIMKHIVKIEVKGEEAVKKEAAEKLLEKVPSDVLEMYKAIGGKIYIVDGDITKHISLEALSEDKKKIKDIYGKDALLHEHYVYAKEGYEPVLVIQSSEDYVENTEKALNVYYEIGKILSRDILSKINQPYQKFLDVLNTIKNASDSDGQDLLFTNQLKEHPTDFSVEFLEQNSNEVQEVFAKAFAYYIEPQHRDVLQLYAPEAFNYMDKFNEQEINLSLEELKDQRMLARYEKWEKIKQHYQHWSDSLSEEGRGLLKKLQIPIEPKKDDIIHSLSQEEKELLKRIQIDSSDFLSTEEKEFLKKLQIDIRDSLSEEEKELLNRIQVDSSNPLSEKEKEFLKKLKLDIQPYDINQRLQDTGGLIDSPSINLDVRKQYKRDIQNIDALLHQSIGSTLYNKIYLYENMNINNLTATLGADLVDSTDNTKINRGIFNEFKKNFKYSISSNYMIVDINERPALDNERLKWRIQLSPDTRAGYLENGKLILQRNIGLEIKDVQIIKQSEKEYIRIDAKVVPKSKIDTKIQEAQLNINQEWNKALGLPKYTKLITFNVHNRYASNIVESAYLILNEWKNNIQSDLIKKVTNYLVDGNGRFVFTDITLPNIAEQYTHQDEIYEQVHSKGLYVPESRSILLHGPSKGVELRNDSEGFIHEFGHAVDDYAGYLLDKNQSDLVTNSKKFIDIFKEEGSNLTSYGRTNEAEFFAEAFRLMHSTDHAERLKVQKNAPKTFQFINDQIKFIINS
B1 was tested, and the “in vitro cleavage of S35-labeled MKK3b by LF (SDS-PAGE and autoradiography)” value was “in the presence of 10 µM HNP-1, proteolysis was efficiently inhibited”.
